Values from PubChem BioAssay AID624099 (ICCB-Longwood, 2012).

- Screen: 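Human genes that papillomavirus E2 requires to repress the HPV18 LCR promoter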 (primary screen)
- Cells: human C33A cervical carcinoma cells (HPV-negative) stably expressing BPV1 E2 and an HPV18 LCR luciferase reporter
- Knock-down reagent: siRNA pool against human genes, 40 nM
- Time to read-out: 72 h
- Measurement: 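Per-well luciferase luminescence, z-scored on each plate against the plate mean and SD with control wells left out, then averaged across three replicate plates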
- Reading the numbers: mean z-score and z-score: higher = stronger reporter signal, weaker E2 silencing
- Call rule: 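Hit if mean z-score reaches 2 and two or more of three replicate z-scores also reach 2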
The whole screen tested about 21,000 reagents; shown is a part drawn at random. 497 of all reagents (2.4%) count as active. 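Higher z means weaker E2 silencing; only reporter increases were scored, and knock-downs that hurt cell survival may mask genuine repressor factors.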 Unmarked entries are inactive.

no.	Target gene	mean z-score	z-score, replicate A	z-score, replicate B	z-score, replicate C
1	SMAD9	-0.8	-0.84	-0.79	-0.79
2	FAM133DP	0.89	1.23	0.48	0.95
3	CCDC68	0.46	0.09	0.88	0.41
4	TFPI2	0.12	0.08	0.06	0.22
5	IGF2BP2	0.32	1.26	-0.41	0.11
6	CNGA2	-1.23	-1.06	-1.35	-1.29
7	FAAP20	-1.26	-1.32	-1.45	-1
8	IRAK1BP1	-0.54	-0.53	-0.74	-0.34
9	AAMDC	-0.11	-0.26	0.06	-0.14
10	AGTRAP	3.71 (active)	3.53	3.94	3.66
11	KCNE1	-0.72	-0.64	-0.63	-0.88
12	HERPUD2	0.43	0.27	0.46	0.55
13	ANGPTL7	0.77	0.54	0.88	0.88
14	BFSP1	-0.46	-0.28	-0.63	-0.46
15	JCHAIN	1.05	1.13	1.08	0.95
16	WNT2B	-0.87	-0.85	-1.07	-0.71
17	OR8B2	-0.62	-0.69	-0.23	-0.92
18	PTRHD1	-0.13	-0.42	0.03	0
19	ZNF557	1.37	1.26	1.6	1.25
20	CPA6	-1.2	-1.13	-1.26	-1.22
21	P2RX1	0.69	0.7	0.83	0.54
22	LINC00887	0.49	0.87	0.28	0.32
23	MFSD2B	0.06	0.03	0.37	-0.21
24	ZNF561-AS1	0.09	0.08	0.29	-0.09
25	ATP8B3	-0.97	-0.73	-0.95	-1.24
26	SVBP	1.45	1.36	1.46	1.54
27	RPL31P43	0.04	0.38	-0.11	-0.16
28	TMTC2	0.55	0.94	0.43	0.28
29	HP	0.54	0.64	0.58	0.39
30	GPR82	0.75	0.94	0.42	0.89
31	PNP	-0.89	-0.54	-1.01	-1.12
32	NT5C2	0	-0.06	-0.22	0.28
33	CACNB3	-0.74	-0.89	-1.16	-0.18
34	H1-2	3.93 (active)	4.74	3.49	3.56
35	SYNRG	0.12	0.25	0.04	0.07
36	ZEB2	-1.06	-1.08	-1.01	-1.09
37	PLXNB3	-0.2	-0.23	-0.31	-0.05
38	ZNF623	-0.13	0.01	-0.03	-0.36
39	ERMAP	-0.33	0.15	-0.65	-0.48

Reagents above marked active:
Target gene	mean z-score	z-score, replicate A	z-score, replicate B	z-score, replicate C
AGTRAP	3.71 (active)	3.53	3.94	3.66
H1-2	3.93 (active)	4.74	3.49	3.56
